# Reference: PMC10783014, “Structure-based virtual screening and in vitro validation of inhibitors of cyclic dinucleotide phosphodiesterases ENPP1 and CdnP” (Microbiology Spectrum, 2023)
# Protein sequences, listed by entry. Tags and fused reporters are not part of them.
# UniProt P71615, whole entry: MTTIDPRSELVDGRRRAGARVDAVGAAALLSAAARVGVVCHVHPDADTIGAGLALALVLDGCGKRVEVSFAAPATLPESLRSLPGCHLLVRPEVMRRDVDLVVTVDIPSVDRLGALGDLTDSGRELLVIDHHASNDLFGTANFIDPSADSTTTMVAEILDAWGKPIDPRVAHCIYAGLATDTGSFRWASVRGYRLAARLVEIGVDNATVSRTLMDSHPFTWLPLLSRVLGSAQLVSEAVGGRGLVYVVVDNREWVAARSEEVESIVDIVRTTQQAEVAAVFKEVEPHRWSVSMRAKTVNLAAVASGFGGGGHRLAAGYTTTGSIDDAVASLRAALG
# Legend:
# [1] = system: Vero cells; test: Vero cell cytotoxicity, resazurin dye reduction assay; details: Vero cell growth inhibition, 48 h then resazurin overnight
# [2] = target: M.tb CdnP (Mycobacterium tuberculosis, UniProt P71615); test: Luminescence-based AMP-Glo CdnP enzyme inhibition assay with c-di-AMP substrate
Structure (SMILES),IC50 Vero cells [1],"IC50 CdnP ([2]; c-di-AMP 300 µM, CdnP 5 µM)","IC50 ([2]; read-out: IC50 CdnP, c-di-AMP 300 µM, CdnP 5 µM)"
C[N+]1(CCC[N+]2(C)CC3C4CCCCC4=C4CCCCC4C3C2)CCOCC1 (stereo not shown),100 µg/mL,,
c1ccc(CN2CN(Cc3ccccc3)CN(Cc3ccccc3)C2)cc1,> 100 µg/mL,15 µg/mL,41.9 µM
